In patent US6110963A, “Aryl-oxo-acetic acids useful in the treatment of insulin resistance and hyperglycemia” (American Home Products Corporation, priority 1999, dated 2000):

Tested on: rat hepatic microsomal PTPases
Assay: Inhibition of tri-phosphorylated insulin receptor dodecaphosphopeptide dephosphorylation by rat hepatic PTPases
Details: PTPase activity, compound at 50 μM, rat liver microsomes

## O=[As]c1ccccc1 (stereo not shown)
  % Change from Control: -57%
